The subject of the assay is BVDV NADL cp in MDBK cells. The assay is described as follows: Yield reduction assay. Type of assay: cell-based, bovine viral diarrhea virus.

The values below come from patent US7582618B2 (priority 2002, dated 2009).

As to interferon alpha 2b, the “EC50 against BVDV” value is recorded as 2.6 IU per ml. Further, the maximal viral reduction (even at 1000 IU per ml) is ≤ 2 logs.
